Laboratory results: PubChem BioAssay AID1259414 (Drosophila RNAi Screening Center, 2018)

Aim: 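Fly genes that alter Wolbachia amount inside host cells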 (primary screen)
Cell system: Drosophila JW18 cells infected with Wolbachia
Knock-down reagent: long dsRNA against Drosophila genes, 0.25 µg dsRNA per well of a 384-well plate
Duration: 5 days
Conditions: cells persistently infected with Wolbachia before knock-down; no added drug
Read-out: 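Imaged fluorescence in situ signal for Wolbachia 23S rRNA per DAPI-counted host cell, given as a robust z-score within each plate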
Scale: Wolbachia per cell robust z: higher = more Wolbachia per host cell than the plate typical
Active means: 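Hit when robust z is 1.5 or more, or -1.5 or less, in at least two of three replicates; excludes dsRNAs with several or no targets, genes not expressed in JW18 and well A1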
The deposit covers about 24,000 reagents; below is an unselected part of those that have a named target and a result. Over the whole deposit, about 1,210 (5%) got an active call. 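Inactive calls also include excluded dsRNAs with several or no targets, genes unexpressed in JW18, and well A1, regardless of score.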 Entries without a mark were called inactive.

Gnmt (GeneID 41561) [DRSC15987]
- Wolbachia per cell robust z, rep 1: 0.429
- Wolbachia per cell robust z, rep 2: -0.275
- Wolbachia per cell robust z, rep 3: 0.0344

CG7069 (GeneID 42621) [DRSC16188]
- Wolbachia per cell robust z, rep 1: 1.06
- Wolbachia per cell robust z, rep 2: 1.34
- Wolbachia per cell robust z, rep 3: 1.99

Ser8 (GeneID 36489) [DRSC06891]
- Wolbachia per cell robust z, rep 1: -2.75
- Wolbachia per cell robust z, rep 2: 0.00997
- Wolbachia per cell robust z, rep 3: -0.232

Ser8 (GeneID 36489) [DRSC25468]
- Wolbachia per cell robust z, rep 1: 0.156
- Wolbachia per cell robust z, rep 2: 0.821
- Wolbachia per cell robust z, rep 3: -0.0409

Or19a (GeneID 59214) [DRSC20684]
- Wolbachia per cell robust z, rep 1: 0.214
- Wolbachia per cell robust z, rep 2: 0.259
- Wolbachia per cell robust z, rep 3: 0.687

vsg (GeneID 39137) [DRSC10219]
- Wolbachia per cell robust z, rep 1: 0.394
- Wolbachia per cell robust z, rep 2: -0.0271
- Wolbachia per cell robust z, rep 3: -0.494

vsg (GeneID 39137) [DRSC25227]
- Wolbachia per cell robust z, rep 1: -0.352
- Wolbachia per cell robust z, rep 2: -1.45
- Wolbachia per cell robust z, rep 3: 0.124

CG6693 (GeneID 41346) [DRSC16097]
- Wolbachia per cell robust z, rep 1: 0.284
- Wolbachia per cell robust z, rep 2: -0.137
- Wolbachia per cell robust z, rep 3: -0.0563

CG6693 (GeneID 41346) [DRSC28189]
- Wolbachia per cell robust z, rep 1: 1.38
- Wolbachia per cell robust z, rep 2: 1.02
- Wolbachia per cell robust z, rep 3: 0.0839

CG13698 (GeneID 40000) [DRSC10047]
- Wolbachia per cell robust z, rep 1: -1.86
- Wolbachia per cell robust z, rep 2: 0.66
- Wolbachia per cell robust z, rep 3: 0.0133

Ordered by “Wolbachia per cell robust z, rep 3” (low to high): some entries from above.
Ser8 (GeneID 36489) [DRSC06891]
- Wolbachia per cell robust z, rep 1: -2.75
- Wolbachia per cell robust z, rep 2: 0.00997
- Wolbachia per cell robust z, rep 3: -0.232

CG7069 (GeneID 42621) [DRSC16188]
- Wolbachia per cell robust z, rep 1: 1.06
- Wolbachia per cell robust z, rep 2: 1.34
- Wolbachia per cell robust z, rep 3: 1.99

More results:
CHMP2B (GeneID 38599) [DRSC10436]
- Wolbachia per cell robust z, rep 1: -1.47
- Wolbachia per cell robust z, rep 2: -1.16
- Wolbachia per cell robust z, rep 3: -1.35

CHMP2B (GeneID 38599) [DRSC26221]
- Wolbachia per cell robust z, rep 1: 0.826
- Wolbachia per cell robust z, rep 2: 0.243
- Wolbachia per cell robust z, rep 3: 0.484

Urm1 (GeneID 2768949) [DRSC22941]
- Wolbachia per cell robust z, rep 1: 0.108
- Wolbachia per cell robust z, rep 2: 0.588
- Wolbachia per cell robust z, rep 3: -0.0525

Urm1 (GeneID 2768949) [DRSC29463]
- Wolbachia per cell robust z, rep 1: 0.767
- Wolbachia per cell robust z, rep 2: 0.0678
- Wolbachia per cell robust z, rep 3: 0.00927

Urm1 (GeneID 2768949) [DRSC39097]
- Wolbachia per cell robust z, rep 1: 0.0398
- Wolbachia per cell robust z, rep 2: -5.78
- Wolbachia per cell robust z, rep 3: 1.95

MSBP (GeneID 32548) [DRSC20146]
- Wolbachia per cell robust z, rep 1: -0.196
- Wolbachia per cell robust z, rep 2: 0.215
- Wolbachia per cell robust z, rep 3: 0.281

ppk15 (GeneID 43188) [DRSC14733]
- Wolbachia per cell robust z, rep 1: -3.2
- Wolbachia per cell robust z, rep 2: 0.906
- Wolbachia per cell robust z, rep 3: 0.568

ppk15 (GeneID 43188) [DRSC27947]
- Wolbachia per cell robust z, rep 1: 0.859
- Wolbachia per cell robust z, rep 2: -0.555
- Wolbachia per cell robust z, rep 3: 0.721

mute (GeneID 2768848) [DRSC06562]
- Wolbachia per cell robust z, rep 1: 0.0657
- Wolbachia per cell robust z, rep 2: 0.868
- Wolbachia per cell robust z, rep 3: -0.497

mute (GeneID 2768848) [DRSC22931]
- Wolbachia per cell robust z, rep 1: -0.295
- Wolbachia per cell robust z, rep 2: -0.443
- Wolbachia per cell robust z, rep 3: 0.0983

mute (GeneID 2768848) [DRSC29848]
- Wolbachia per cell robust z, rep 1: 0.16 (active)
- Wolbachia per cell robust z, rep 2: -2.79
- Wolbachia per cell robust z, rep 3: -2.4

mRpS24 (GeneID 42870) [DRSC28886]
- Wolbachia per cell robust z, rep 1: 1.45
- Wolbachia per cell robust z, rep 2: 0.898
- Wolbachia per cell robust z, rep 3: 0.73

CG3746 (GeneID 37593) [DRSC04412]
- Wolbachia per cell robust z, rep 1: 0.362
- Wolbachia per cell robust z, rep 2: 0.319
- Wolbachia per cell robust z, rep 3: -5.13

CG3746 (GeneID 37593) [DRSC30050]
- Wolbachia per cell robust z, rep 1: -0.248
- Wolbachia per cell robust z, rep 2: -1.42
- Wolbachia per cell robust z, rep 3: -1.67
